This passage reports Ratio CC50/EC50 results from ChEMBL document CHEMBL3352189 (J Med Chem, 2014).

Molecules are shown by their SMILES.

This data set in a line: Selectivity index, ratio of CC50 for african green monkey Vero 76 cells to EC50 for Venezuelan equine encephalitis virus TC83. The data set is classed as toxicity, cell-based.

With `CN1CCN(C)/C(=N/c2ccc([N+](=O)[O-])cc2C(=O)Nc2ccccc2)C1`, the Ratio CC50/EC50 is > 1670.
